Measured values from several laboratories, pooled; numbers as filed in NIAID ChemDB.

Shared fields: growth or infection tests; organism: Rhinovirus; read-out: EC50

ECn: concentration that inhibits the pathogen or its effect by n%. Lines come from different laboratories, so protocols vary.

structure,cells,strain,read by,result
CN(C)c1nc(C(F)(F)F)nc2c1ncn2Cc1cccc(F)c1,M-HELA,Serotype 31,plaque count,>8 µM
Fc1ccc(Cn2cnc3c(Nc4cccc(F)c4)nc(C(F)(F)F)nc32)cc1,M-HELA,Serotype 1B,plaque count,0.9 µM
CCOC(=O)c1ccc(OCCCCOc2ccc(-c3snc(SC)c3C#N)cc2)cc1,HELA-OHIO,Serotype 63 (group B),cytopathic effect,>2 µM
Cc1cc(CCCCCOc2c(Cl)cc(C3=NCCO3)cc2Cl)on1,HeLa,TYPE 13,plaque count,0.23 µg/mL
Cc1ccc(Cn2cnc3c(N(C)C)nc(C(F)(F)F)nc32)c(C)c1,M-HELA,Serotype 3,plaque count,>8 µM
CCO/N=C/c1ccc(OCCC2CCN(c3ccc(Cl)nn3)CC2)cc1,KB,6360-CV41 (ICAM-1 receptor group 63),neutral red,0.013 µM
CSc1nsc(-c2ccc(OCCCCOc3ccc([N+](=O)[O-])cc3)cc2)c1C#N,HELA-OHIO,Serotype 72 (group A),cytopathic effect,>0.5 µM
CN(C)c1nc(C(F)(F)F)nc2c1ncn2Cc1ccc(F)cc1,M-HELA,Serotype 31,plaque count,>8 µM
Fc1cccc(Cn2cnc3c(Nc4cccc(F)c4)nc(C(F)(F)F)nc32)c1,M-HELA,Serotype 58,plaque count,4.2 µM
CCOC(=O)c1ccc(OCCOc2ccc(-c3snc(SC)c3C#N)cc2)cc1,HELA-OHIO,Serotype 41 (group B),cytopathic effect,>2 µM
CN(C)c1nc(C(F)(F)F)nc2c1ncn2Cc1ccc(Cl)c(NC=O)c1,M-HELA,Serotype 13,plaque count,>8 µM
CCOC(=O)c1ccc(OCCC2CCN(c3ccc(C)nn3)CC2)cc1,HELA-OHIO,Serotype 85 (group B),cytopathic effect,0.005 µM
Cc1cc(CCCOc2c(C)cc(-c3noc(C(F)(F)F)n3)cc2C)on1,OHIO HELA-I,Isolate 8,cytopathic effect / visual reading,0.17 µg/mL
CSc1nsc(-c2ccc(OCCCOc3ccccc3)cc2)c1C#N,HELA-OHIO,Serotype 29 (group B),cytopathic effect,>20 µM
CC(C)Oc1ccc(Cn2cnc3c(N(C)C)nc(C(F)(F)F)nc32)cc1,M-HELA,Serotype 19,plaque count,>8 µM

Repeating the final 2 entries:

structure,cells,strain,read by,result
CSc1nsc(-c2ccc(OCCCOc3ccccc3)cc2)c1C#N,HELA-OHIO,Serotype 29 (group B),cytopathic effect,>20 µM
CC(C)Oc1ccc(Cn2cnc3c(N(C)C)nc(C(F)(F)F)nc32)cc1,M-HELA,Serotype 19,plaque count,>8 µM